Measurements from patent publication US7238793B2 (Duke University, priority 2001, dated 2007).
Read-outs that look alike come from different tables or passages of the source.

The chains behind the UniProt entries cited, without tags or fusion partners.
UniProt P03372, whole entry, looked up: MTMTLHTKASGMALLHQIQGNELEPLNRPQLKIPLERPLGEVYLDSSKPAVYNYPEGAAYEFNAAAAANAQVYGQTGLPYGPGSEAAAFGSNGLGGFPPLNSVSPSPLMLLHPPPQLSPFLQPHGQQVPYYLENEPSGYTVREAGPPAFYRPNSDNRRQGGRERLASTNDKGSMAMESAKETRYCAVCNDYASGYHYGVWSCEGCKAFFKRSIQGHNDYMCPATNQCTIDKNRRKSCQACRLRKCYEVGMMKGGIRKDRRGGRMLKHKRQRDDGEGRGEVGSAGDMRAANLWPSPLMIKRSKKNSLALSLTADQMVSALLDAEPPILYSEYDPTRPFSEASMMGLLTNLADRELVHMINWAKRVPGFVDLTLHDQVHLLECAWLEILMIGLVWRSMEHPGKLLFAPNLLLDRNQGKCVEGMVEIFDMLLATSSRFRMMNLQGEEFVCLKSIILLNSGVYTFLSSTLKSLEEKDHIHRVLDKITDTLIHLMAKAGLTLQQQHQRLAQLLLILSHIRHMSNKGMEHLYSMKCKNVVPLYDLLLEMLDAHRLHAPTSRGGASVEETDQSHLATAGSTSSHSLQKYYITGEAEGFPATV

Target: ERα (Homo sapiens, UniProt P03372)
Type: cell-based
Conditions: ligand 10 nM

With C[C@]12CC[C@@H]3c4ccc(O)cc4C[C@@H](CCCCCCCCC[S+]([O-])CCCC(F)(F)C(F)(F)F)[C@H]3[C@@H]1CC[C@@H]2O (some centres unmarked) [ICI 182,780] the “ligand activity on ERα when RTA-Δ2 is expressed” value (1X-ERE-tata-Luc) was “agonist” and the “ligand activity on ERα when RTA-Δ2 is expressed” value (3X-ERE-tata-Luc) was “agonists”.
